System: K1 chloroquine and pyrimethamine-resistant P. falciparum strain
Experiment: In vitro antiplasmodial evaluation (SYBR Green I)
Format: cell-based, Plasmodium falciparum
Conditions: SI = CC50 HepG2/EC50 PfK1
Protocol: For all molecules, the selectivity index was calculated as following SI = CC50/EC50.
It was maintained in continuous culture, as described previously by Trager and Jensen. Cultures were maintained in fresh A+ human erythrocytes at 2.5% hematocrit in complete medium (RPMI 1640 with 25 mM HEPES, 25 mM NaHCO3, 10% of A+ human serum) at 37 °C under reduced O2 atmosphere (gas mixture 10% O2, 5% CO2, and 85% N2). Parasitemia was maintained daily between 1 and 3%. The P. falciparum drug susceptibility test was carried out by comparing quantities of DNA in treated and control cultures of parasite in human erythrocytes according to an SYBR Green I fluorescence-based method using a 96-well fluorescence plate reader. Compounds, previously dissolved in DMSO (final concentration less than 0.5% v/v), were incubated in a total assay volume of 200 μL (RPMI, 2% hematocrit and 0.4% parasitemia) for 72 h in a humidified atmosphere (10% O2 and 5% CO2) at 37 °C, in 96-well flat bottom plates. Duplicate assays were performed for each sample. After incubation, plates were frozen at […] for 24 h. Then, the frozen plates were thawed for 1 h at 37 °C. […] Plates were incubated for 15 min at 37 °C and then read on a TECAN Infinite F-200 spectrophotometer with excitation and emission wavelengths at 485 and 535 nm, respectively.

Substance: 2-(Naphthalen-2-yloxy)-3-trichloromethylquinoxaline [3q]
- SI (selectivity index): 88.5

Substance: 2-(Naphthalen-1-yloxy)-3-trichloromethylquinoxaline [3r]
- SI (selectivity index): >78.1
